{"source": "PubChem BioAssay AID504761 (Drosophila RNAi Screening Center, 2011)", "aim": "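Genome-wide fly cell screen for genes dengue virus requires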 (primary screen)", "system": "D.Mel-2 cells from Drosophila", "reagent": "long dsRNA against Drosophila genes", "treatment": "infection with dengue virus type 2; dose and infection time not stated", "measured": "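Cells stained for dengue envelope protein and imaged; percent of infected cells per well on duplicate plates, ranked by infection, with stained nuclei counted for cell number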", "direction": "infection score: higher = more virus-infected cells", "call rule": "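Low infection ranks in the two replicates (chance level up to 0.065) followed by a retest with a 1.5-fold or larger significant decrease, p below 0.05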", "calls": "active = confirmed: knock-down lowers infection; inactive = not picked or not confirmed", "note": "The deposit covers about 22,000 reagents; this is a random part of those that have a named target and a result. Over the whole deposit, 116 (0.52%) were called active. 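Calls depend on retest data that are not deposited; infection was ranked per plate without normalising between plates; the unit of the infection score is not given.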 Entries without a mark were called inactive. Further read-outs or replicates are left out here. Not given: the amount of reagent, the time to read-out."}
{"gene":"CG31869","dsRNA":"DRSC02582","infection score, replicate 1":10.7}
{"gene":"CG31869","dsRNA":"DRSC02674","infection score, replicate 1":5.23}
{"gene":"CG6126","dsRNA":"DRSC15971","infection score, replicate 1":9.52}
{"gene":"CG8128","dsRNA":"DRSC20084","infection score, replicate 1":1.93}
{"gene":"CG12902","dsRNA":"DRSC06217","infection score, replicate 1":2.63}
{"gene":"CG7328","dsRNA":"DRSC10812","infection score, replicate 1":4.81}
{"gene":"CG33494","dsRNA":"DRSC13715","infection score, replicate 1":3.02}
{"gene":"CG14931","dsRNA":"DRSC02413","infection score, replicate 1":5.65}
{"gene":"Lcch3 (Ligand-gated chloride channel homolog 3)","dsRNA":"DRSC20257","infection score, replicate 1":2.87}
{"gene":"Lcch3 (Ligand-gated chloride channel homolog 3)","dsRNA":"DRSC22175","infection score, replicate 1":3.15}
{"gene":"mldr (mulder)","dsRNA":"DRSC18100","infection score, replicate 1":10}
{"gene":"mldr (mulder)","dsRNA":"DRSC27990","infection score, replicate 1":7.44}

Targets above whose gene name begins with M or m (2):
{"gene":"mldr (mulder)","dsRNA":"DRSC18100","infection score, replicate 1":10}
{"gene":"mldr (mulder)","dsRNA":"DRSC27990","infection score, replicate 1":7.44}

The results go on:
{"gene":"dare (defective in the avoidance of repellents)","dsRNA":"DRSC07602","infection score, replicate 1":10.5}
{"gene":"CG17049 (retired record)","dsRNA":"DRSC06650","infection score, replicate 1":13.4}
{"gene":"CG1275","dsRNA":"DRSC08294","infection score, replicate 1":9.23}
{"gene":"CG12071","dsRNA":"DRSC22972","infection score, replicate 1":1.07}
{"gene":"loh (lonely heart)","dsRNA":"DRSC01122","infection score, replicate 1":5.8}
{"gene":"loh (lonely heart)","dsRNA":"DRSC02943","infection score, replicate 1":7.1}
{"gene":"CG4935","dsRNA":"DRSC01924","infection score, replicate 1":8.14}
{"gene":"Nmnat (Nicotinamide mononucleotide adenylyltransferase)","dsRNA":"DRSC14644","infection score, replicate 1":2.38}
{"gene":"Nmnat (Nicotinamide mononucleotide adenylyltransferase)","dsRNA":"DRSC26899","infection score, replicate 1":4.59}
